Data reported in patent US8945856B2, “Affinity-based detection of biological targets” (priority 2005, dated 2015).

Amino acid sequences for entries named in this document (tags omitted).
UniProt P10844, whole entry, looked up: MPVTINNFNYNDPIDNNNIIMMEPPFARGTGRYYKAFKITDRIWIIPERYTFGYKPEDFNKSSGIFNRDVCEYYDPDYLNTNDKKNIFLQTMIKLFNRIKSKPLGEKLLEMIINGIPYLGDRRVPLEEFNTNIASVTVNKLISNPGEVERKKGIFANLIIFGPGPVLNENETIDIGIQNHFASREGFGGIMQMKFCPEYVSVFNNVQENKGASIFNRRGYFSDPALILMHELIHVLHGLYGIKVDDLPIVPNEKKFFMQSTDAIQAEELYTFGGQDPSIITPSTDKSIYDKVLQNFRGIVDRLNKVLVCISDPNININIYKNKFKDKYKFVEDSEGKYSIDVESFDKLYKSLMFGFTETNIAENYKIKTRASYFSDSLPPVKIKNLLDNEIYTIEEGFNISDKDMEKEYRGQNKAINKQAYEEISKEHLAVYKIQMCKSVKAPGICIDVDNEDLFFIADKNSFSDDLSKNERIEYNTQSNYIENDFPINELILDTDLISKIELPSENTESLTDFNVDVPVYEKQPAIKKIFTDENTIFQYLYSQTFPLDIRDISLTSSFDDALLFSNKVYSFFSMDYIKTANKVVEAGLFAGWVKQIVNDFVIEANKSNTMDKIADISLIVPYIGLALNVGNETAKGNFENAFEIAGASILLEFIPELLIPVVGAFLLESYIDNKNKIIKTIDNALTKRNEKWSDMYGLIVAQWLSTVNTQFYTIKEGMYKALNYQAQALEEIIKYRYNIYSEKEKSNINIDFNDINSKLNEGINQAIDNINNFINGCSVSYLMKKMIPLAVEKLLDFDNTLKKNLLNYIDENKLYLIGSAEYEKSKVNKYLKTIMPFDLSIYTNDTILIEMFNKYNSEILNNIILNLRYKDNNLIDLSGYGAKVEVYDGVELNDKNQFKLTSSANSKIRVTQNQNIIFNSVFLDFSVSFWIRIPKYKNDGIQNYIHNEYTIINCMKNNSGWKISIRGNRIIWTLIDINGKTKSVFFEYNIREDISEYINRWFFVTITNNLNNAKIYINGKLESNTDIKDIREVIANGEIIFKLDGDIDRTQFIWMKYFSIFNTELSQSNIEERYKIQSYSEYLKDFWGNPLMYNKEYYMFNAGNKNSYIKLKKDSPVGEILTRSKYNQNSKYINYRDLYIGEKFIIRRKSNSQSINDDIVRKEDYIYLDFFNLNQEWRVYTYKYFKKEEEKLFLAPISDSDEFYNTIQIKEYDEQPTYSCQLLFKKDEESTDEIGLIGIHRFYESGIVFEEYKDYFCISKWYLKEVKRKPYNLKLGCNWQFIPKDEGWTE

Biological target: bot toxoid B (Clostridium botulinum, UniProt P10844)
Assay type: binding

Compound: CC[C@H](C)[C@H](NC(=O)CN)C(=O)NCC(=O)N[C@@H](C)C(=O)N[C@H](C(=O)N[C@@H](CC(C)C)C(=O)N[C@@H](CCCCN)C(=O)N[C@H](C(=O)N[C@@H](CC(C)C)C(=O)N[C@H](C(=O)N[C@H](C(=O)NCC(=O)N[C@@H](CC(C)C)C(=O)N1CCC[C@H]1C(=O)N[C@@H](C)C(=O)N[C@@H](CC(C)C)C(=O)N[C@H](C(=O)N[C@@H](CO)C(=O)N[C@@H](Cc1c[nH]c2ccccc12)C(=O)N[C@H](C(=O)N[C@@H](CCCCN)C(=O)N[C@@H](CCCNC(=N)N)C(=O)N[C@@H](CCCCN)C(=O)N[C@@H](CCCNC(=N)N)C(=O)N[C@@H](CCC(N)=O)C(=O)N[C@@H](CCC(N)=O)C(N)=O)[C@@H](C)CC)[C@@H](C)CC)[C@@H](C)O)[C@@H](C)O)C(C)C)C(C)C [Melittin]
- Limit of detection of bot toxoid B: ≤ 5 ng/mL
- Preferential binding, toxoid B versus toxoid A: bound preferentially by toxoid B
